Pooled drug test results. Numbers come from NIAID ChemDB, via PubChem.

Common to all: cytotoxicity tests; cell line: H9; read-out: CC50

An empty or dashed field is not shown. CCn: concentration that lowers growth or viability of the cells by n%. Conditions beyond the fields shown may differ between rows.

smiles	read by	value
C[C@@H]1CC[C@]2(C(=O)O)CC[C@]3(C)C(=CCC4[C@]5(C)C(CC[C@]43C)C(C)(C)[C@@H](O)[C@H](O)[C@H]5O)C2[C@]1(C)O	-	>100 µg/mL
CC1(C)CC[C@]2(C(=O)O)CC[C@]3(COC(=O)/C=C/c4ccc(O)c(O)c4)C(=CCC4[C@@]5(C)CC[C@H](OC(=O)/C=C/c6ccc(O)cc6)C(C)(C)C5CC[C@]43C)[C@@H]2C1	-	>25 µg/mL
CC1c2cc(O)c(O)cc2CC[N+]1(C)C	-	>25 µg/mL
COc1c(O)cc(C(=O)O[C@@H]2Cc3c(O)cc(O)cc3O[C@@H]2c2ccc(O)c(O)c2)cc1O	-	50 µg/mL
Oc1ccc(CC2NCCc3cc(O)c(O)cc32)cc1O	-	19.69 µg/mL
O=C(O[C@@H]1Cc2c(O)cc(O)c([C@H]3c4c(O)cc(O)cc4O[C@H](c4cc(O)c(O)c(O)c4)[C@@H]3O)c2O[C@@H]1c1cc(O)c(O)c(O)c1)c1cc(O)c(O)c(O)c1	-	28 µg/mL
Cc1cn([C@H]2C[C@H](N=[N+]=[N-])[C@@H](CO)O2)c(=O)[nH]c1=O	-	500 µg/mL
COc1ccc([C@@H](CNC(=O)c2ccccc2)OC)cc1	cell count	16.4 µg/mL
COc1cc(/C=C/C(=O)NCCc2ccc(O)cc2)ccc1O	-	>25 µg/mL
Cc1cn([C@H]2C[C@H](N=[N+]=[N-])[C@@H](CO)O2)c(=O)[nH]c1=O	-	500 µg/mL
CC1=C2OCC(C)c3c(O)cc(C)c(c32)C(=O)C1=O	-	>25 µg/mL
C[C@@H]1CC[C@]2(C(=O)O)CC[C@]3(C)C(=CC[C@@H]4[C@@]5(C)C[C@@H](O)[C@@H](O)C(C)(C)[C@@H]5CC[C@]43C)[C@@H]2[C@]1(C)O	-	37.5 µg/mL
CC(C)=CCC/C(C)=C/CN1CCc2cc(O)c(O)cc2[C@H]1C	-	20.23 µg/mL
CCC(C)(CC(=O)O)CC(=O)O[C@H]1CC[C@@]2(C)C(CC[C@]3(C)C2CC=C2C4CC(C)(C)CC[C@]4(C(=O)O)CC[C@]23C)C1(C)C	-	4.4 µg/mL
CC(C)=CCC/C(C)=C/COc1cc2cc[n+](C)c(Cc3ccc(O)c(O)c3)c2cc1OC/C=C(\C)CCC=C(C)C	-	17.95 µg/mL
O=C(O[C@H](Cc1c(O)cc(O)cc1O)[C@@H](c1cc(O)c(O)c(O)c1)c1c(O)cc(O)c2c1O[C@H](c1cc(O)c(O)c(O)c1)[C@H](OC(=O)c1cc(O)c(O)c(O)c1)C2)c1cc(O)c(O)c(O)c1	-	8 µg/mL
O=c1[nH]cnc2c1ncn2[C@H]1CC[C@@H](CO)O1	-	1001 µM
O=C(O[C@@H]1Cc2c(O)cc(O)cc2O[C@@H]1c1cc(=O)c(O)c2c(O)c(O)c(O)cc2c1)c1cc(O)c(O)c(O)c1	-	25 µg/mL
COc1c2ccoc2nc2c(OC)cccc12	cell count	23.1 µg/mL
CC(=O)O[C@H]1CCC2C3CC[C@@]45O[C@@H]4C(=O)C(S(C)(=O)=O)C[C@]5(C)C3CC[C@@]21C	-	1.29 µM
COc1cc2c(cc1OC)N1CCc3cc4c(cc3[C@@H]1CC2)OCO4	cell count	2.25 µg/mL
COc1cc(/C=C/C(=O)Oc2ccc(/C=C/C(=O)NCCc3ccc(O)cc3)cc2OC)ccc1O	-	>25 µg/mL
CC1(C)CC[C@]2(C(=O)O)CC[C@]3(C)C(=CC[C@@H]4[C@@]5(C)CC[C@H](O)C(C)(C)[C@@H]5CC[C@]43C)[C@@H]2C1	-	34.3 µg/mL
O=C(O[C@@H]1[C@@H](c2c(O)cc3c(c2O)C[C@@H](OC(=O)c2cc(O)c(O)c(O)c2)[C@@H](c2cc(O)c(O)c(O)c2)O3)c2c(O)cc(O)cc2O[C@@H]1c1cc(O)c(O)c(O)c1)c1cc(O)c(O)c(O)c1	-	30 µg/mL
CC(=O)O[C@H]1CCC2C3CC[C@@]45O[C@@H]4C(=O)C(C(N)=O)C[C@]5(C)C3CC[C@@]21C	-	3.84 µM
O=C(O[C@@H]1Cc2c(O)cc(O)c(Cc3c(O)cc(O)c4c3O[C@H](c3cc(O)c(O)c(O)c3)[C@H](OC(=O)c3cc(O)c(O)c(O)c3)C4)c2O[C@@H]1c1cc(O)c(O)c(O)c1)c1cc(O)c(O)c(O)c1	-	45 µg/mL
Oc1cc2c(cc1O)C1Cc3ccc(O)c(O)c3CN1CC2	-	>25 µg/mL
CC(C)=CCC/C(C)=C/CC/C(C)=C/CC/C=C(\C)CC/C=C(\C)CCC=C(C)C	cell count	1.93 µg/mL
CC(C)(CC(=O)O)CC(=O)O[C@H]1CC[C@@]2(C)C(CC[C@]3(C)C2CC=C2C4CC(C)(C)CC[C@]4(C(=O)O)CC[C@]23C)C1(C)C	-	14.2 µg/mL

3 of the rows above, restated:

COc1c(O)cc(C(=O)O[C@@H]2Cc3c(O)cc(O)cc3O[C@@H]2c2ccc(O)c(O)c2)cc1O ; value: 50 µg/mL
O=C(O[C@H](Cc1c(O)cc(O)cc1O)[C@@H](c1cc(O)c(O)c(O)c1)c1c(O)cc(O)c2c1O[C@H](c1cc(O)c(O)c(O)c1)[C@H](OC(=O)c1cc(O)c(O)c(O)c1)C2)c1cc(O)c(O)c(O)c1 ; value: 8 µg/mL
CC1=C2OCC(C)c3c(O)cc(C)c(c32)C(=O)C1=O ; value: >25 µg/mL